Measured values from several laboratories, pooled; numbers as filed in NIAID ChemDB.

Shared fields: growth or infection tests; organism: Coxsackie virus; measure: EC50

ECn is the concentration giving n% inhibition of infection, replication or growth. Neighbouring rows are from separate reports. An empty or dashed field is not shown.

| compound | strain | cells | method | result |
|---|---|---|---|---|
| CC(Sc1ncnc2c1cnn2CCCCO)C(N)=O | TYPE B4 | VERO | cytopathic effect | >400 µg/mL |
| Nc1ncnc2c1ncn2[C@@H]1O[C@H](C=NO)[C@@H](O)[C@H]1O | B4 | HeLa | cytopathic effect | >40 µg/mL |
| CC1(C)[C@@H](CCO)C[C@H]1n1nnc2c(=O)[nH]c(N)nc21 | TYPE B4 | HeLa | cytopathic effect | 200 µg/mL |
| Cc1cn([C@H]2O[C@H](CO)[C@@H](N=[N+]=[N-])[C@H]2F)c(=O)nc1N | TYPE B4 | HeLa | cytopathic effect | >400 µg/mL |
| Cc1cn(CCCC(O)CF)c(=O)[nH]c1=O | TYPE B4 | HeLa | cytopathic effect | >400 µg/mL |
| [O-][n+]1onc2c(N3CC[N+]4(CC3)CC[N+]3(CCN(c5ncnc6no[n+]([O-])c56)CC3)CC4)ncnc21 | B3 | HeLa | cytopathic effect | >70 µg/mL |
| CC(Sc1ncnc2c1cnn2COCC(O)CO)C(N)=O | TYPE B4 | HeLa | cytopathic effect | >400 µg/mL |
| OC[C@H]1O[C@@H](n2nnc3ccnc(Cl)c32)C[C@@H]1O | B1 | VERO | plaque count | >368 µM |
| OC[C@H]1O[C@H](c2cncc(Br)c2)[C@@H](O)[C@@H]1O | TYPE B4 | HeLa | cytopathic effect | ≥100 µg/mL |
| N#Cc1cc([N+](=O)[O-])ccc1Oc1ccc(Cl)c(Cl)c1 | TYPE A21 | HeLa | cytopathic effect | 0.2 µg/mL |
| Nc1nc2c(ncn2[C@H]2OC[C@@H](CO)C2O)c(=O)[nH]1 | TYPE B4 | HeLa | cytopathic effect | >80 µg/mL |
| CSc1nsc(-c2c(Cl)cccc2Cl)c1C#N | TYPE B1 | HEP-2 | plaque count | >5 µM |
| CC1(C)[C@@H](CCO)C[C@H]1n1cnc2c(=O)[nH]cnc21 | TYPE B4 | HeLa | cytopathic effect | >400 µg/mL |
| NC(=O)c1cncc([C@@H]2O[C@H](CO)[C@@H](O)[C@@H]2O)c1 | TYPE B4 | HeLa | cytopathic effect | ≥100 µg/mL |
| OC[C@H]1O[C@@H](n2c(SCc3ccccn3)nc3cc(Cl)c(Cl)cc32)[C@H](O)[C@@H]1O | B4 | HEL | cytopathic effect | >50 µg/mL |
| C=C(N=CC)c1nc(-c2ccc(OC)cc2)n([C@@H]2O[C@H](CO)[C@@H](O)[C@H]2O)n1 | TYPE B4 | VERO | cytopathic effect | >100 µg/mL |
| [N-]=[N+]=NC(CBr)c1cc([C@H]2C[C@H](O)[C@@H](CO)O2)c(F)cc1F | TYPE B4 | VERO | cytopathic effect | >16 µg/mL |
| COc1ccc(-c2snc(SC)c2C#N)cc1 | TYPE B1 | HEP-2 | plaque count | >10 µM |
| Nc1ncnc2c1ncn2[C@@H]1O[C@H](CO)[C@@H](F)[C@H]1O | TYPE B4 | VERO B | cytopathic effect | 7 µg/mL |
| Cc1cn([C@H]2OC[C@@H](CO)C2F)c(=O)[nH]c1=O | TYPE B4 | HeLa | cytopathic effect | >80 µg/mL |
| Cc1cccn2c(C3OCCO3)cnc12 | TYPE B4 | VERO |  | >1000 µM |
| Nc1ncnc2c1ncn2[C@@H]1C[C@H](COP(=O)(O)O)[C@@H](O)[C@H]1O | TYPE B4 | HeLa | cytopathic effect | >400 µg/mL |
| OC[C@H]1O[C@@H](n2nnc3c(Cl)nccc32)C[C@@H]1O | B1 | VERO | plaque count | >368 µM |
| Nc1ncnc2c1ncn2C[C@H](O)CO | Strain B4 | VERO | cytopathic effect | >400 µg/mL |
| CON=C1C[C@H](n2cc(C)c(=O)[nH]c2=O)O[C@@H]1CO |  | VERO | cytopathic effect | >200 µg/mL |
| CC(C)CS[C@H]1C[C@@H](n2cnc3c(N)ncnc32)[C@H](O)[C@@H]1O | TYPE B4 | HeLa | cytopathic effect | >80 µg/mL |
| N#Cc1cncc([C@H]2O[C@H](CO)[C@H](O)[C@@H]2O)c1 | TYPE B4 | VERO | cytopathic effect | ≥100 µg/mL |
| OCCCCn1cc(Cn2ncc3c(SCc4ccccc4)ncnc32)nn1 | B4 | HeLa |  | >400 µg/mL |
| Nc1nccc2nn([C@H]3C[C@H](O)[C@@H](CO)O3)nc12 | B1 | VERO | plaque count | >396 µM |
| CSc1ncnc2c1cnn2Cc1cnnn1CCCCO | B4 | HeLa |  | >400 µg/mL |
| Cc1cn([C@@H]2OC[C@H](CO)[C@H]2O)c(=O)[nH]c1=O | TYPE B4 | VERO | cytopathic effect | >80 µg/mL |
| OCCCCn1nncc1Cn1ncc2c(SCc3ccccc3)ncnc21 | B4 | VERO |  | >400 µg/mL |
| CC=NC(=N)c1nc(-c2ccccc2)n(COCCO)n1 | TYPE B4 | HeLa | cytopathic effect | >200 µg/mL |
| NC(=O)c1cncc([C@H]2O[C@H](CO)[C@@H](O)[C@@H]2O)c1 | TYPE B4 | HeLa | cytopathic effect | ≥100 µg/mL |
| OCCOCn1c(CCc2ccccn2)nc2ccccc21 | B4 | HEL | cytopathic effect | >100 µg/mL |
| O=C(NCCCl)N1CC[N+]2(CC1)CC[N+]1(CCN(C(=O)NCCCl)CC1)CC2 | B3 | HeLa | cytopathic effect | >70 µg/mL |
| CC=NC(=N)c1nc(-c2ccc(C)cc2)n(COCCO)n1 | TYPE B4 | HeLa | cytopathic effect | >200 µg/mL |
| CSc1nsc(-c2ccncc2)c1C#N | TYPE B1 | HEP-2 | plaque count | >2.5 µM |
| CCON=C[C@H]1O[C@@H](n2cnc3c(N)ncnc32)[C@H](O)[C@@H]1O | B4 | HeLa | cytopathic effect | >200 µg/mL |
| CC1(CO)CCC(Cn2cnc3c(Cl)nc(N)nc32)C1(C)C | TYPE B4 | HeLa | cytopathic effect | 200 µg/mL |
| NN1CC[N+]2(CC1)CC[N+]1(CCN(N)CC1)CC2 | B3 | HeLa | cytopathic effect | >70 µg/mL |
| OCCOCn1c(SCc2ccccn2)nc2cc(Cl)c(Cl)cc21 | B4 | HEL | cytopathic effect | >50 µg/mL |
| O=[N+]([O-])c1c(N2CC[N+]3(CC2)CC[N+]2(CCNCC2)CC3)ncnc1N1CC[N+]2(CC1)CC[N+]1(CCN(c3ncnc(N4CC[N+]5(CC4)CC[N+]4(CCNCC4)CC5)c3[N+](=O)[O-])CC1)CC2 | B3 | HeLa | cytopathic effect | >70 µg/mL |
| Cc1cccn2c(C3SCCS3)cnc12 | TYPE B4 | HeLa |  | >1000 µM |
| Nc1ncnc2c1ncn2CCCC(O)CF | TYPE B4 | HeLa | cytopathic effect | >400 µg/mL |
| C=C[C@@](C)(CO)CCn1cnc2c(N)ncnc21 | TYPE B3 |  |  | 53.49 µg/mL |
| COc1cc(/C=N/N=C(/N)NO)cc(OC)c1OC.Cc1ccc(S(=O)(=O)O)cc1 | ATCC VR28 (TYPE B1) | VERO | plaque count | 0.7 µM |
| Cc1cc(CCCCCOc2c(Cl)cc(C3=NCCO3)cc2Cl)on1 | B-5 | RD-2 | plaque count | 0.03 µg/mL |
| CC1(CO)CCC(Cn2nnc3c(N)nc(N)nc32)C1(C)C | TYPE B4 | HeLa | cytopathic effect | 300 µg/mL |
| CON=C[C@H]1O[C@@H](n2cnc3c(N)ncnc32)[C@H](O)[C@@H]1O | Strain B4 | VERO | cytopathic effect | >100 µg/mL |
| CSc1nsc(-c2ccc(C(F)(F)F)cc2)c1C#N | TYPE B1 | HEP-2 | plaque count | >14 µM |
| Nc1nccc2c1ncn2[C@@H]1C[C@H](CO)[C@@H](O)[C@H]1O | Strain B4 | VERO | cytopathic effect | >400 µg/mL |
| NC(=O)CSc1ncnc2c1cnn2CCCCO | TYPE B4 | VERO | cytopathic effect | >400 µg/mL |
| CC1(C)[C@@H](CCO)C[C@H]1n1nnc2c(Cl)nc(N)nc21 | TYPE B4 | HeLa | cytopathic effect | >200 µg/mL |
| OC[C@H]1O[C@@H](n2c(CCc3ccccn3)nc3cc(Cl)c(Cl)cc32)[C@H](O)[C@@H]1O | B4 | HEL | cytopathic effect | >100 µg/mL |
| CC1(CO)CCC(Cn2nnc3c(Cl)nc(N)nc32)C1(C)C | TYPE B4 | HeLa | cytopathic effect | >400 µg/mL |
| Nc1nccc2c1nnn2[C@H]1C[C@H](O)[C@@H](CO)O1 | B1 | VERO | plaque count | >396 µM |
| Cc1ccn2c(C3OCCO3)cnc2c1 | TYPE B4 | HeLa |  | >1000 µM |
| COc1ccc(OC)c(/C=N/N=C(/N)NO)c1.Cc1ccc(S(=O)(=O)O)cc1 | ATCC VR28 (TYPE B1) | VERO | plaque count | 50 µM |
| Cc1cccn2c(C3OCCS3)cnc12 | TYPE B4 | HeLa |  | >1000 µM |
| [N-]=[N+]=N[C@H]1[C@@H](F)[C@H](N2C=CC(N)NC2=O)O[C@@H]1CO | TYPE B4 | HeLa | cytopathic effect | >400 µg/mL |
| COc1ncnc2c1cnn2Cc1cn(CCCCO)nn1 | B4 | VERO |  | >400 µg/mL |
| CC1(C)[C@@H](CCO)C[C@H]1n1cnc2c(N)nc(N)nc21 | TYPE B4 | HeLa | cytopathic effect | 100 µg/mL |
| NC(=O)c1cncc([C@@H]2O[C@H](CO)[C@H](O)[C@@H]2O)c1 | TYPE B4 | HeLa | cytopathic effect | ≥100 µg/mL |
| Nc1ncnc2c1ncn2[C@@H]1C[C@H](CO)[C@@H](O)[C@H]1O | TYPE B4 | HeLa | cytopathic effect | >4 µg/mL |
| Nc1nccc2c1nnn2[C@@H]1O[C@H](CO)[C@@H](O)[C@H]1O | B1 | VERO | plaque count | >398 µM |
| CCC(Sc1ncnc2c1cnn2COCCO)C(N)=O | TYPE B4 | HeLa | cytopathic effect | >400 µg/mL |
| Nc1nccc2c1ncn2[C@H]1C[C@H](O)[C@@H](CO)O1 | B1 | VERO | plaque count | >397 µM |
| C=C(N=CC)c1nc(-c2cccc(C)c2)n(C2O[C@H](CO)[C@@H](O)[C@H](O)[C@H]2O)n1 | TYPE B4 | VERO | cytopathic effect | >100 µg/mL |

A second listing of 4 rows from above:

| compound | strain | cells | method | result |
|---|---|---|---|---|
| Nc1nc2c(ncn2[C@H]2OC[C@@H](CO)C2O)c(=O)[nH]1 | TYPE B4 | HeLa | cytopathic effect | >80 µg/mL |
| CC1(C)[C@@H](CCO)C[C@H]1n1cnc2c(N)nc(N)nc21 | TYPE B4 | HeLa | cytopathic effect | 100 µg/mL |
| N#Cc1cncc([C@H]2O[C@H](CO)[C@H](O)[C@@H]2O)c1 | TYPE B4 | VERO | cytopathic effect | ≥100 µg/mL |
| CC1(CO)CCC(Cn2nnc3c(Cl)nc(N)nc32)C1(C)C | TYPE B4 | HeLa | cytopathic effect | >400 µg/mL |